1 molecule from paper PMC12394453 (Signal Transduction and Targeted Therapy, 2025) can be followed below.

This assay addresses soluble recombinant NiV-G protein (Bangladesh strain) (Nipah virus, Bangladesh isolate …, UniProt Q4VCP5, strain).

B1: chimeric antibody 14F8 (variable regions of mouse m14F8 on a human IgG1 constant region backbone) (antibody, V domains shown)
VH: QVQLKESGPGLVAPSQSLSITCTVSGFSLTSYDISWIRQPPGKGLEWLGVIWTGGVTNYNSAFLSRLSISKDNSKSQVFLKMNSLQTDDTAIYYCVREGDWFFDVWGAGTTVTVSS
VL: DVLMTQTPLSLPVSLGDQASISCRSSQSIVHSNGNTYLEWYLQKPGQSPQLLIYKVSNRFSGVPDRFSGSGSGTDFTLKINRVEAEDLGLYYCFQASHVPYTFGGGTKLEIK
notes: also called Humanized 14F8; m14F8 (mouse parent)
Usually Kd stands for the equilibrium constant for the complex coming apart. B1: the Kd amounted to 0.58 nM.
